Columns and labels:
hNaV1.7 = hNaV1.7 (Homo sapiens, UniProt Q15858); assay: Automated patch clamping (QPatch) in CHO cells heterologously expressing hNaV1.7; assay type: cell-based; settings: OD1 300 nM, 8 s conditioning step of −55 mV; Figure S2
[1] = tested on: OD1-induced spontaneous pain behaviors (NaV1.7-mediated pain); assay: Effect of inhibitors on OD1-induced spontaneous pain behaviors in mice; settings: control 105 ± 6

By UniProt entry, the sequences of proteins in these tests, tags left out.
UniProt Q15858, whole entry: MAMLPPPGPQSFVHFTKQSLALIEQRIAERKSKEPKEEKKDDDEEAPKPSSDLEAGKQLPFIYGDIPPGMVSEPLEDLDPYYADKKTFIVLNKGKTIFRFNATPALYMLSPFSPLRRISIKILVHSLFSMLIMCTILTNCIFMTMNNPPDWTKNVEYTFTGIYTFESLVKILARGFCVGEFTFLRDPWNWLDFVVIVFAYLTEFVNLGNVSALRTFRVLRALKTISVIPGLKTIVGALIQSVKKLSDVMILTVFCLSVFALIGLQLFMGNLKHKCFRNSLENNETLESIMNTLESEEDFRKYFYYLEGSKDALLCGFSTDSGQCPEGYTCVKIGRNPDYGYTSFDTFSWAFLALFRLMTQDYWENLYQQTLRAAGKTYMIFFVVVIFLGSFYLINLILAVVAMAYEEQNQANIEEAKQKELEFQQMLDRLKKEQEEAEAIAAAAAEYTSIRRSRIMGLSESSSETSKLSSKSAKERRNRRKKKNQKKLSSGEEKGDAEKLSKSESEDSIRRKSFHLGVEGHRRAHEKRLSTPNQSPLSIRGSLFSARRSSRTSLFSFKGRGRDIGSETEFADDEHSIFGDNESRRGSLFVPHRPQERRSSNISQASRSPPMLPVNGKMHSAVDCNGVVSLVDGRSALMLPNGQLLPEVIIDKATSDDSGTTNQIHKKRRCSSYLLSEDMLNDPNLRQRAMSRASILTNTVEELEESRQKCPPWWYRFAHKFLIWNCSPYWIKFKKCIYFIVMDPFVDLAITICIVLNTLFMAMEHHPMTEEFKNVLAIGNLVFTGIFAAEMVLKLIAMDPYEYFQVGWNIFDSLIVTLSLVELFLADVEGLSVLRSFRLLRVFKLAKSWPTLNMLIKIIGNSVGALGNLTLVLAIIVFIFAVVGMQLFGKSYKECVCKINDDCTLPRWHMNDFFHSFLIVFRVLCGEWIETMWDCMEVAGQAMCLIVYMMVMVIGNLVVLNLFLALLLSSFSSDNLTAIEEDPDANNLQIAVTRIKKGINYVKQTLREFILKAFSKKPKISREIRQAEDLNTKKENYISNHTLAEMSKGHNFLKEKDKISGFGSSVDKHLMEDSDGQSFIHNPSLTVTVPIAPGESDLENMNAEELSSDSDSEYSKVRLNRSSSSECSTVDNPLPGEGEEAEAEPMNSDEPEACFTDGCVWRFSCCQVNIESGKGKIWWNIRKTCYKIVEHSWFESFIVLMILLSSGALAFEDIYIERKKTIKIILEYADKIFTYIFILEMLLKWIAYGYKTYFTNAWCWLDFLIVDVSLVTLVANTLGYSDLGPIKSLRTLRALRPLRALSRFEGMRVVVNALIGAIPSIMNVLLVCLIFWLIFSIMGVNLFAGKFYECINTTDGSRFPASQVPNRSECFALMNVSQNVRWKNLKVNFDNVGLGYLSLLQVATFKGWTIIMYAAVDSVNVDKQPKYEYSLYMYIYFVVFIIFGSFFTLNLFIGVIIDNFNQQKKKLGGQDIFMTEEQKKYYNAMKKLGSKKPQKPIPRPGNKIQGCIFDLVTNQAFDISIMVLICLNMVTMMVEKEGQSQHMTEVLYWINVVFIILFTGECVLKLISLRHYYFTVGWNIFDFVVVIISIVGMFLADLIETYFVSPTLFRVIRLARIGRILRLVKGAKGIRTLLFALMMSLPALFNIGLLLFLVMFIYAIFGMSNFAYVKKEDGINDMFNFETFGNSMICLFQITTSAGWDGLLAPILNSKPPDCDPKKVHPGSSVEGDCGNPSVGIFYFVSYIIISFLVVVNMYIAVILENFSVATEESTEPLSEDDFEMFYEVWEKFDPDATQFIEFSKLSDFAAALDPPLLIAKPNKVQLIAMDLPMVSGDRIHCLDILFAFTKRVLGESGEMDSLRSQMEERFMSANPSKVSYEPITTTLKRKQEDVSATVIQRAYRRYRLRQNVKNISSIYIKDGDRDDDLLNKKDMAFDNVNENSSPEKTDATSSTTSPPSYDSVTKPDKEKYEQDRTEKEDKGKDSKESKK

## Cn1nccc1-c1ccccc1Oc1ccc(S(=O)(=O)Nc2nccs2)cc1C#N
hNaV1.7
  effect on currents in the presence of OD1 (sample traces): inhibited peak current
[1]; intraperitoneal 30 mg/kg, 15 min prior to OD1
  spontaneous pain behaviors: 42 ± 8 behaviors/10 min
[1]; intraplantar 10 μM, co-injected with OD1 300 nM
  spontaneous pain behaviors: 81 ± 12 behaviors/10 min
[1]; intraplantar 100 μM, co-injected with OD1 300 nM
  spontaneous pain behaviors: 31 ± 8 behaviors/10 min
[1]; intraplantar 1 mM, co-injected with OD1 300 nM
  spontaneous pain behaviors: 19 ± 6 behaviors/10 min
